PubChem BioAssay AID624099, ICCB-Longwood – 2012

- Assay: 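Knock-downs relieving repression by E2 of an HPV18 LCR luciferase reporter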 (primary screen)
- Cell system: human C33A cervical carcinoma cells (HPV-negative) stably expressing BPV1 E2 and an HPV18 LCR luciferase reporter
- Reagent: siRNA pool against human genes, 40 nM
- Time to read-out: 72 h
- Measured: 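Per-well luciferase luminescence, z-scored on each plate against the plate mean and SD with control wells left out, then averaged across three replicate plates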
- Direction: mean z-score and z-score: higher = stronger reporter signal, weaker E2 silencing
- Call rule: 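Mean z ≥ 2 together with z ≥ 2 in two or more of the three replicates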
The deposit covers about 21,000 reagents; below is an unselected part. Over the whole deposit, 497 (2.4%) got an active call. 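Higher z means weaker E2 silencing; only reporter increases were scored, and knock-downs that hurt cell survival may mask genuine repressor factors.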 The numbers tell different reagents against one gene apart. No sequences are given here.

CFD (GeneID 1675) showed mean z-score -0.28; z-score, replicate A = -0.03; z-score, replicate B = -0.56; z-score, replicate C = -0.25; inactive.
After knock-down of SLC51B (GeneID 123264), the screen gave mean z-score 1.39; z-score, replicate A = 1.29; z-score, replicate B = 1.48; z-score, replicate C = 1.39; inactive.
For CADM4 (GeneID 199731), the values are mean z-score -1.73; z-score, replicate A = -1.39; z-score, replicate B = -2.26; z-score, replicate C = -1.55; inactive.
Depletion of LOC283157 (retired record) (GeneID 283157) gave: mean z-score -0.88; z-score, replicate A = -1.07; z-score, replicate B = -0.87; z-score, replicate C = -0.7; inactive.
Depletion of ICMT-DT (GeneID 148645) gave: mean z-score 0.21; z-score, replicate A = 0.06; z-score, replicate B = 0.29; z-score, replicate C = 0.27; inactive.
Depletion of PKD2 (GeneID 5311) came out at: mean z-score -0.03; z-score, replicate A = -0.07; z-score, replicate B = 0.08; z-score, replicate C = -0.11; inactive.
Knock-down of THAP5 (GeneID 168451) came out at: mean z-score -0.43; z-score, replicate A = -0.98; z-score, replicate B = -0.1; z-score, replicate C = -0.22; inactive.
After knock-down of SEZ6 (GeneID 124925), the screen gave mean z-score -1.21; z-score, replicate A = -1.39; z-score, replicate B = -1.27; z-score, replicate C = -0.98; inactive.

Copied from the listing, 3 entries:
ICMT-DT (GeneID 148645) | mean z-score: 0.21; z-score, replicate A: 0.06; z-score, replicate B: 0.29; z-score, replicate C: 0.27; Outcome: inactive
PKD2 (GeneID 5311) | mean z-score: -0.03; z-score, replicate A: -0.07; z-score, replicate B: 0.08; z-score, replicate C: -0.11; Outcome: inactive
THAP5 (GeneID 168451) | mean z-score: -0.43; z-score, replicate A: -0.98; z-score, replicate B: -0.1; z-score, replicate C: -0.22; Outcome: inactive

The list goes on.
With knock-down of LOC283155 (retired record) (GeneID 283155), the screen gave mean z-score 0.03; z-score, replicate A = -0.08; z-score, replicate B = 0.19; z-score, replicate C = -0.03; inactive.
PLBD1 (GeneID 79887) scored mean z-score 0.8; z-score, replicate A = 1.05; z-score, replicate B = 0.99; z-score, replicate C = 0.37; inactive.
For PRPF18 (GeneID 8559) the deposit lists mean z-score 0.4; z-score, replicate A = 0.49; z-score, replicate B = 0.61; z-score, replicate C = 0.1; inactive.
After knock-down of LOC401476 (retired record) (GeneID 401476) the results were mean z-score -0.14; z-score, replicate A = -0.05; z-score, replicate B = 0; z-score, replicate C = -0.37; inactive.
Knock-down of RSPH9 (GeneID 221421) gave: mean z-score 0.58; z-score, replicate A = 0.76; z-score, replicate B = 0.7; z-score, replicate C = 0.27; inactive.
SDAD1 (GeneID 55153) gave mean z-score -0.76; z-score, replicate A = -1.16; z-score, replicate B = -1.16; z-score, replicate C = 0.02; inactive.
GJC1 (GeneID 10052) scored mean z-score 0.7; z-score, replicate A = 0.65; z-score, replicate B = 0.55; z-score, replicate C = 0.89; inactive.
Against VIPR1 (GeneID 7433), the entry reads mean z-score 1.27; z-score, replicate A = 1.57; z-score, replicate B = 1.13; z-score, replicate C = 1.1; inactive.
Against BCORP1 (GeneID 286554) the deposit lists mean z-score 0.65; z-score, replicate A = 0.5; z-score, replicate B = 0.77; z-score, replicate C = 0.69; inactive.
After knock-down of BEND2 (GeneID 139105), the record shows mean z-score -1.32; z-score, replicate A = -1.24; z-score, replicate B = -1.57; z-score, replicate C = -1.16; inactive.
With knock-down of WDSUB1 (GeneID 151525), the record shows mean z-score 0.23; z-score, replicate A = 0.21; z-score, replicate B = 0.38; z-score, replicate C = 0.1; inactive.
Knock-down of CADM1 (GeneID 23705) came out at: mean z-score -0.82; z-score, replicate A = -0.9; z-score, replicate B = -0.91; z-score, replicate C = -0.65; inactive.
After knock-down of ERCC6L2 (GeneID 375748) #1, the screen gave mean z-score -0.66; z-score, replicate A = -0.84; z-score, replicate B = -0.8; z-score, replicate C = -0.33; inactive.
Silencing of ERCC6L2 (GeneID 375748) #2 resulted in: mean z-score -0.54; z-score, replicate A = -0.56; z-score, replicate B = -0.11; z-score, replicate C = -0.93; inactive.
